Publication PMC7229044, “Triterpenoid acids isolated from Schinus terebinthifolia fruits reduce Staphylococcus aureus virulence and abate dermonecrosis” (Scientific Reports, 2020)

Tests used:
Format in all cases: cell-based, Staphylococcus aureus
Conditions in all cases: IC50 for HaCaT cytotoxicity divided by IC50 for agr activity
[1] = tested on: agr activity, AH1677 (agr I)
Experimental: (§1) S. aureus agr reporter strains AH1677 (agr I), AH430 (agr II), AH1747 (agr III) and AH1872 (agr IV) were grown overnight in TSB supplemented with chloramphenicol at 37 °C while shaking at 200 rpm. Cultures of S. aureus were standardized by optical density (OD600nm) matching to a 0.5 McFarland standard to reach a final inoculum density in the wells of 5 × 10^5 CFU mL^−1 in TSB, supplemented with 10 μg/mL chloramphenicol. […] Black sided, 96-well, clear bottom, tissue-culture treated plates (Costar 3603) with final well volume of 200 μL were used for all agr inhibition assays. Plates were incubated in a humidified chamber at 37 °C while shaking at 260 rpm. After 24 hours, plates were removed and OD600 and fluorescence were measured by plate reader at an excitation of 493 nm and emission of 535 nm. All tests were performed in triplicate and repeated using a new stock of bacteria on a separate day.

[2] = tested on: agr activity, AH1872 (agr IV)
Experimental: as §1

[3] = tested on: agr activity, AH430 (agr II)
Experimental: as §1

[4] = tested on: agr activity, AH1747 (agr III)
Experimental: as §1

Structure (SMILES) | Therapeutic Index [1] | Therapeutic Index [2] | Therapeutic Index [3] | Therapeutic Index [4]
CC1(C)CCC2(C(=O)O)CCC3(C)C(=CCC4C5(C)CCC(=O)C(C)(C)C5CCC43C)C2C1 (stereo not drawn) [Compound 1, 3-oxo-olean-12-en-28-oic acid] | 8 | 4 | 35 | 2
CC(=CCCC(C)C1CCC2(C)C3=CCC4C(C)(C)C(=O)CCC4(C)C3CCC12C)C(=O)O (stereo not drawn) [Compound 2, 3-oxotirucalla-7,24Z-dien-26-oic acid] | 18 | 8 | 35 | 8
CC(=CCCC(C)C1CCC2(C)C3=CCC4C(C)(C)C(O)CCC4(C)C3CCC12C)C(=O)O (stereo not drawn) [Compound 3, 3α-hydroxytirucalla-7,24Z-dien-26-oic acid] | 18 | 8 | 8 | 8
